Source: PubChem BioAssay AID1259414 (Drosophila RNAi Screening Center, 2018)

Test: 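Fly genes that alter Wolbachia amount inside host cells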 (primary screen)
System: Drosophila JW18 cells infected with Wolbachia
Reagents: long dsRNA against Drosophila genes, 0.25 µg dsRNA per well of a 384-well plate
Timing: 5 days
Treatment: cells persistently infected with Wolbachia before knock-down; no added drug
Measurement: 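Imaged fluorescence in situ signal for Wolbachia 23S rRNA per DAPI-counted host cell, given as a robust z-score within each plate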
Reading the numbers: Wolbachia per cell robust z: higher = more Wolbachia per host cell than the plate typical
Rule for the call: 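Active if absolute robust z reaches 1.5 in two or more of three replicates, leaving out multi- or no-target dsRNAs, genes unexpressed in JW18 and A1 wells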
The screen tested about 24,000 reagents; this is an unselected part of those that have a named target and a result. Over the whole deposit, about 1,210 (5%) were called active. 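Inactive calls also include excluded dsRNAs with several or no targets, genes unexpressed in JW18, and well A1, regardless of score.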 Reagents against one gene are numbered here. Names joined by + are all predicted targets of the reagent. Reagent sequences are not shown.

Silencing of Secp43 #1 resulted in: Wolbachia per cell robust z, rep 1 = 0.525; Wolbachia per cell robust z, rep 2 = 1.13; Wolbachia per cell robust z, rep 3 = 0.517; inactive.
For Secp43 #2, the entry reads Wolbachia per cell robust z, rep 1 = 0.375; Wolbachia per cell robust z, rep 2 = -0.723; Wolbachia per cell robust z, rep 3 = -0.179; inactive.
Silencing of TpnC47D #1 resulted in: Wolbachia per cell robust z, rep 1 = -0.612; Wolbachia per cell robust z, rep 2 = -0.428; Wolbachia per cell robust z, rep 3 = -1.4; inactive.
TpnC47D #2 showed Wolbachia per cell robust z, rep 1 = -0.00995; Wolbachia per cell robust z, rep 2 = -0.226; Wolbachia per cell robust z, rep 3 = -0.247; inactive.
With knock-down of snoRNA:U27:54Ea + snoRNA:U29:54Ed + snoRNA:U27:54Eb + 8 more the results were Wolbachia per cell robust z, rep 1 = 0.59; Wolbachia per cell robust z, rep 2 = -5.67; Wolbachia per cell robust z, rep 3 = 0.569; inactive.
With knock-down of Obp56f the results were Wolbachia per cell robust z, rep 1 = -0.457; Wolbachia per cell robust z, rep 2 = 0.148; Wolbachia per cell robust z, rep 3 = 0.347; inactive.
For Trf2 #1, the entry reads Wolbachia per cell robust z, rep 1 = 0.288; Wolbachia per cell robust z, rep 2 = 0.142; Wolbachia per cell robust z, rep 3 = 0.307; inactive.
With knock-down of Trf2 #2 the results were Wolbachia per cell robust z, rep 1 = 0.838; Wolbachia per cell robust z, rep 2 = 0.818; Wolbachia per cell robust z, rep 3 = 1.92; inactive.
After knock-down of mAcon2 #1, the record shows Wolbachia per cell robust z, rep 1 = -4.82; Wolbachia per cell robust z, rep 2 = -0.0784; Wolbachia per cell robust z, rep 3 = 0.173; inactive.
For mAcon2 #2, the entry reads Wolbachia per cell robust z, rep 1 = 0.051; Wolbachia per cell robust z, rep 2 = -1.22; Wolbachia per cell robust z, rep 3 = -1.24; inactive.
ocm #1 showed Wolbachia per cell robust z, rep 1 = -0.302; Wolbachia per cell robust z, rep 2 = 0.19; Wolbachia per cell robust z, rep 3 = -2.66; inactive.
ocm #2 showed Wolbachia per cell robust z, rep 1 = 0.821; Wolbachia per cell robust z, rep 2 = -1.58; Wolbachia per cell robust z, rep 3 = 0.976; inactive.
With knock-down of org-1 #1 the results were Wolbachia per cell robust z, rep 1 = -3.2; Wolbachia per cell robust z, rep 2 = -3.05; Wolbachia per cell robust z, rep 3 = -1.19; active.
For org-1 #2, the values are Wolbachia per cell robust z, rep 1 = 0.615; Wolbachia per cell robust z, rep 2 = 0.675; Wolbachia per cell robust z, rep 3 = 0.264; inactive.
After knock-down of eg #1, the record shows Wolbachia per cell robust z, rep 1 = 0.618; Wolbachia per cell robust z, rep 2 = 0.0738; Wolbachia per cell robust z, rep 3 = -7.53; inactive.
After knock-down of eg #2, the screen gave Wolbachia per cell robust z, rep 1 = -1.55; Wolbachia per cell robust z, rep 2 = -1.49; Wolbachia per cell robust z, rep 3 = -1.08; inactive.
For Npc1b the deposit lists Wolbachia per cell robust z, rep 1 = -2.03; Wolbachia per cell robust z, rep 2 = -1.33; Wolbachia per cell robust z, rep 3 = -2.15; inactive.
mRpS30 scored Wolbachia per cell robust z, rep 1 = -2.82; Wolbachia per cell robust z, rep 2 = -9.19; Wolbachia per cell robust z, rep 3 = 0.467; active.
After knock-down of CG34273, the screen gave Wolbachia per cell robust z, rep 1 = 0.372; Wolbachia per cell robust z, rep 2 = -1.96; Wolbachia per cell robust z, rep 3 = -0.688; inactive.
After knock-down of CG34299 the results were Wolbachia per cell robust z, rep 1 = -1.11; Wolbachia per cell robust z, rep 2 = 0.0169; Wolbachia per cell robust z, rep 3 = 0.0451; inactive.
Silencing of CG3505 gave: Wolbachia per cell robust z, rep 1 = 0.404; Wolbachia per cell robust z, rep 2 = 0.807; Wolbachia per cell robust z, rep 3 = 1.41; inactive.
Against PlexB the deposit lists Wolbachia per cell robust z, rep 1 = 0.542; Wolbachia per cell robust z, rep 2 = -0.335; Wolbachia per cell robust z, rep 3 = -0.277; inactive.
With knock-down of Meics #1 the results were Wolbachia per cell robust z, rep 1 = -1.93; Wolbachia per cell robust z, rep 2 = -0.463; Wolbachia per cell robust z, rep 3 = -0.721; inactive.
After knock-down of Meics #2, the record shows Wolbachia per cell robust z, rep 1 = 0.432; Wolbachia per cell robust z, rep 2 = 0.768; Wolbachia per cell robust z, rep 3 = 0.248; inactive.

Taken from above:
Entry of eg #1 in “activity call”: inactive
Result for org-1 #2 in “activity call”: inactive
